A mixed list of measured activities; the numbers were collected in NIAID ChemDB.

Common to all: growth or infection tests; species: Candida albicans; measure: zone

Rows are shuffled and stem from different studies. Zone: diameter of growth inhibition. Blank or dashed fields: not listed here.

SMILES	strain	method	dose	value
O=C(NN=Cc1ccco1)c1snnc1C(F)(F)F	MTCC 227	agar diffusion / agar	100 µg/mL	0 mm
CC1=C(Cl)C(O)=CC(=O)C12Oc1cc(O)c(Cl)c(C)c1C2=O	MTCC 227	agar diffusion	50 µg/mL	25 mm
COc1ccc(C2SCC(=O)N2NC(=O)Cn2c(=O)c(C)nc3ccccc32)cc1	-	-	100 µg/mL	20 mm
CSc1ccc(C2=NN(c3ccccc3)C(c3cn(-c4ccccc4)nc3-c3ccccc3)C2)cc1	MTCC 227	-	1000 µg/mL	0 mm
Cc1cc(C(F)(F)F)c2c(-c3ccc(Cl)cc3)nn(-c3ccc(S(N)(=O)=O)cc3)c2n1	MTCC 227	agar diffusion / agar	4000 µg/mL	0 mm
COc1ccc(Cc2ccc(OC)c(-c3nnc4sc(-c5ccc(O)cc5)nn34)c2)cc1-c1nnc2sc(-c3ccc(O)cc3)nn12	ATCC 10231	agar diffusion / agar	100 µg/disc	14 mm
CN(C)/C=C/C(=O)c1nn(-c2ccccc2)cc1-c1ccc([N+](=O)[O-])cc1	-	agar diffusion / agar	2.5 mg/mL	6 mm
CSc1ccc(C2=NN(c3ccccc3)C(c3cn(-c4ccccc4)nc3-c3ccc(Br)cc3)C2)cc1	MTCC 227	-	500 µg/mL	2 mm
NC(=S)c1ccc(OC(=O)CNc2nncs2)cc1	ATCC 10231	agar diffusion / agar	100 µg/mL	25 mm
Cc1nc2ccccc2n(CC(=O)NN2C(=O)CSC2c2ccc(N(C)C)cc2)c1=O	-	-	100 µg/mL	24 mm
CSC1=NC(c2ccccc2Cl)C(C#N)=C(N)N1	MTCC 227	agar diffusion	25 µg/mL	17 mm
O=C(NN=Cc1cccs1)c1snnc1C(F)(F)F	MTCC 227	agar diffusion / agar	150 µg/mL	0 mm
CC1(C)CC(=O)C2=C(C1)OC1=C(C(=O)CC(C)(C)C1)C2c1cccc(C2C3=C(CC(C)(C)CC3=O)OC3=C2C(=O)CC(C)(C)C3)c1	ATCC 10231	agar diffusion	140 µg/disc	7 mm
CC(=O)N1CCN(c2ccc(OC[C@H]3CO[C@](Cn4ccnc4)(c4ccc(Cl)cc4Cl)O3)cc2)CC1	C-2	agar diffusion / agar	20 mg/mL	12 mm
COc1ccc(Cc2ccc(OC)c(-c3nnc4sc(-c5cccnc5)nn34)c2)cc1-c1nnc2sc(-c3cccnc3)nn12	ATCC 10231	agar diffusion / agar	100 µg/disc	26 mm
Cc1ccc(-c2nn(-c3ccc(S(N)(=O)=O)cc3)c3nc(C)cc(C(F)(F)F)c23)cc1	MTCC 227	agar diffusion / agar	4000 µg/mL	0 mm
CSC1=NC(c2ccccc2)C(C#N)=C(N)N1	MTCC 227	agar diffusion	100 µg/mL	20 mm
O=C(NN=Cc1ccc(Cl)cc1)c1snnc1C(F)(F)F	MTCC 227	agar diffusion / agar	150 µg/mL	0 mm
CC1(C)CCC2=C(C1=O)C(c1cccc(C3C4=C(CCC(C)(C)C4=O)OC4=C3C(=O)C(C)(C)CC4)c1)C1=C(CCC(C)(C)C1=O)O2	ATCC 10231	agar diffusion	20 µg/disc	8 mm
Cc1ccc(-n2cc(-c3ccc([N+](=O)[O-])cc3)c(-c3ccn[nH]3)n2)cc1	-	agar diffusion / agar	5 mg/mL	10 mm
O=C1CCCC2=C1C(c1cccc(C3C4=C(CCCC4=O)OC4=C3C(=O)CCC4)c1)C1=C(CCCC1=O)O2	ATCC 10231	agar diffusion	140 µg/disc	7 mm
O=C(c1cn2cnnc2nn1)c1nn(-c2ccccc2)cc1-c1ccc([N+](=O)[O-])cc1	-	agar diffusion / agar	2.5 mg/mL	6 mm
COc1ccc(C2N=C(SC)NC(N)=C2C#N)cc1	MTCC 227	agar diffusion	50 µg/mL	18 mm
COc1ccc(C2CC(=O)C3=C(C2)OC2=C(C(=O)CC(c4ccc(OC)c(OC)c4)C2)C3c2ccc(C3C4=C(CC(c5ccc(OC)c(OC)c5)CC4=O)OC4=C3C(=O)CC(c3ccc(OC)c(OC)c3)C4)cc2)cc1OC	ATCC 10231	agar diffusion	140 µg/disc	7 mm
COc1ccc(-c2nn(-c3ccccc3)cc2C2CC(c3ccc(-c4ccccc4)cc3)=NN2c2ccccc2)cc1	MTCC 227	-	500 µg/mL	0 mm
O=C1CCCC2=C1C(c1ccc(C3C4=C(CCCC4=O)OC4=C3C(=O)CCC4)cc1)C1=C(CCCC1=O)O2	ATCC 10231	agar diffusion	20 µg/disc	7 mm
c1ccc(-c2nc(-c3ccc(N4CCCCC4)cc3)sc2-c2ccccc2)cc1	ATCC 10231	agar diffusion / agar	100 µg/mL	20 mm
CSC1=NC(/C=C/c2ccccc2)C(C#N)=C(N)N1	MTCC 227	agar diffusion	100 µg/mL	20 mm
Cc1ccc(-c2nn(-c3ccc(S(N)(=O)=O)cc3)c3nc(-c4ccc(Br)cc4)cc(C(F)(F)F)c23)cc1	MTCC 227	agar diffusion / agar	4000 µg/mL	0 mm
Brc1ccc(-c2nn(-c3ccccc3)cc2C2CC(c3ccc(-c4ccccc4)cc3)=NN2c2ccccc2)cc1	MTCC 227	-	500 µg/mL	4 mm
COc1ccc(C=NNC(=O)c2snnc2C(F)(F)F)cc1	MTCC 227	agar diffusion / agar	100 µg/mL	0 mm
Clc1ccc(C2=NN(c3ccccc3)C(c3cn(-c4ccccc4)nc3-c3ccc(Br)cc3)C2)c(Cl)c1	MTCC 227	-	1000 µg/mL	3 mm
O=C(CNc1nncs1)Cc1ccc(-c2nc(-c3ccccc3)c(-c3ccccc3)s2)cc1	ATCC 10231	agar diffusion / agar	100 µg/mL	26 mm
Cc1ccc(-c2nn(-c3ccc(S(N)(=O)=O)cc3)c3nc(-c4ccccc4)cc(C(F)(F)F)c23)cc1	MTCC 227	agar diffusion / agar	4000 µg/mL	0 mm
Cc1nc2ccccc2n(CC(=O)NN2C(=O)CSC2c2ccccc2Cl)c1=O	-	-	100 µg/mL	12 mm
O=C(NN=C1CCCC1)c1snnc1C(F)(F)F	MTCC 227	agar diffusion / agar	100 µg/mL	0 mm
Cc1nc2ccccc2n(CC(=O)NN2C(=O)CSC2c2ccc(Cl)cc2)c1=O	-	-	50 µg/mL	12 mm
O=C(CNc1nncs1)COc1ccc(-c2nc(-c3ccccc3)c(-c3ccccc3)s2)cc1	ATCC 10231	agar diffusion / agar	100 µg/mL	22 mm
COc1ccc(Cc2ccc(OC)c(-c3nnc4sc(-c5ccc([N+](=O)[O-])cc5)nn34)c2)cc1-c1nnc2sc(-c3ccc([N+](=O)[O-])cc3)nn12	ATCC 10231	agar diffusion / agar	100 µg/disc	22 mm
CC(=O)c1ccc(-c2nn(-c3ccc(C)cc3)cc2-c2ccc([N+](=O)[O-])cc2)nc1C	-	agar diffusion / agar	5 mg/mL	9 mm
O=C(NN=Cc1ccc(O)cc1)c1snnc1C(F)(F)F	MTCC 227	agar diffusion / agar	150 µg/mL	0 mm
O=C(Cc1ccc(-c2nc(-c3ccccc3)c(-c3ccccc3)s2)cc1)CN1CCCCC1	ATCC 10231	agar diffusion / agar	100 µg/mL	20 mm
Cc1ccc(-n2cc(-c3ccc([N+](=O)[O-])cc3)c(-c3ccon3)n2)cc1	-	agar diffusion / agar	5 mg/mL	9 mm